Patent US20070248619A1, “New pharmaceutical composition from natural materials for regulating immunity, its preparation method and use” (priority 2006, published 2007)

System: H9 cells infected by HIV-1
Assay: Co-cultivation experiment: fusion of HIV-1-infected H9 cells with C8166 cells
Details: C8166 + HIV-1-infected H9 cells, three days

Dextran Sulfate [DS]
IC50 inhibited fusion (head prints TC50): 5.71 µg/mL
